{"source": "paper PMC11207111", "about": "“Assessment of the Activity of Nitroisoxazole Derivatives against Trypanosoma cruzi” (Molecules, 2024)", "tested_on": "trypomastigote of T. cruzi Dm28", "experiment": "Trypanocidal activity (MTT) on trypomastigotes", "assay_type": "cell-based, Trypanosoma cruzi", "settings": "SI=IC50 Vero cells/IC50 T. cruzi", "protocol": "As a preliminary step, a study of nitroisoxazole derivatives on the epimastigote form of T. cruzi was performed. Despite the epimastigote form not being a clinical form present in mammals, its easy handling has allowed screening for the trypanocidal activity of various compounds. It is worth noting that, during the intracellular life cycle of the parasite, a form similar to the epimastigote, which is biochemically and morphologically identical to the form present in the vector, has been described. […] This is consistent with studies by Fonseca-Berzal et al. […] Additionally, compounds with higher activity have aromatic rings as substituents for nitroisoxazoles, confirming what was described Do […] [40]. […] It has also been determined that the presence of an isoxazole is essential for activity, as its aromatic structure contains a weak nitrogen-oxygen bond that, under different reaction conditions, can undergo ring cleavage, increasing activity. […] The effects of the compounds on trypomastigote and Vero cell viability were evaluated by tetrazolium salt reduction assay (MTT). […] The plates were kept overnight at 37 °C (28 °C for epimastigotes), and the optical density (OD) was determined using a 96-well microplate reader (Vantaa, Finland) at 570 nm. […]"}
{"molecule": "COc1cc(/C=C/c2onc(C)c2[N+](=O)[O-])ccc1O", "note": "[Compound 9, (E)-2-Methoxy-4-(2-(3-methyl-4-nitroisoxazol-5-yl)vinyl)phenol]", "values": [{"measurement": "SI T (trypomastigote)", "result": 0.6}]}
{"molecule": "CCN(CC)c1ccc2cc(/C=C/c3onc(C)c3[N+](=O)[O-])c(=O)oc2c1", "note": "[Compound 11, (E)-7-(Diethylamino)-3-(2-(3-methyl-4-nitroisoxazol-5-yl)vinyl)-2H-chromen-2-one]", "values": [{"measurement": "SI T (trypomastigote)", "result": 0.3}]}
